Results as given in patent US20190351039A1, “IMMUNOMODULATORY THERAPEUTIC MRNA COMPOSITIONS ENCODING ACTIVATING ONCOGENE MUTATION PEPTIDES” (priority 2017, published 2019).

These sequences were tested on individual A*11 viral epitopes. Conditions: mice immunized with A11-viral epitope concatemer; day 21 spleen cells restimulated ex vivo.
Format: in vivo, A11-transgenic mice
For ATIGTAMYK [EBV BRLF1], the “antigen-specific CD8+ T cell responses to the individual viral epitope” value (shortened to “antigen-specific CD8+ T cell responses”) was “observed”. SIIPSGPLK [FLU] was tested, and the “antigen-specific CD8+ T cell responses” value was “observed”. AVDLSHFLK [HIV NEF] was tested, and the “antigen-specific CD8+ T cell responses” value was “observed”.
